The text below walks through data of paper PMC5562331, “The transcriptional regulator SsrB is involved in a molecular switch controlling virulence lifestyles of Salmonella”.

Construct, isoform or probe ends are uncertain for at least one entry. Protein sequences can lack the tags named with them.

This series has as its target T1, 6H-SsrBc (UniProt Q7CQM5).
T1 sequence (looked up, limits assumed): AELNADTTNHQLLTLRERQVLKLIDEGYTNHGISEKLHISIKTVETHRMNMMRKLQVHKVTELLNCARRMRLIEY
Kind of series: EMSA. As to conditions: 0-2 uM protein; recombinant protein; probe letters rebuilt from the primers and the genome.
As to “CAAGGATCCCTAATAAAGAGCATTTACAACTCAGATTTTTTCAGTAGGATACCAGTAAGGAACATTAAAATAACATCAACAAAGGGATAATATGGAAAATGTAACCTTTGTAAGTAATAGTCATCAGCGTCCTGCCGCAGATAAGCTTCAG (double strand) [hilD -48+88]”, the binding result is on record as “binds”.

As for “CAGAAGCTTTCAGCGCCGGGCATCTAAATATTTACATATTTAACTTGGCCTCATTGCAATAGAGATTAGTTTTGTAGCTATCTTACTGCATTTTTTTGGGGTGTAAATGCTGCTTATTATATCTTCATGGTTAATGGTCTGATAATTACACCATCAGAACCATTTTTCTCGAAGATTTCCACTAAATGACCATTCGTTGAAAGTTTAAGAGTGTAATTTGTCTTAGGTTCCAAAATATAAATGAAAGACTGTTTTTAATGGTGCGCTTATTTTTATATTTTTTTGCAAAATAATGATATCGTCTTTTCTTTACTCCCTTCAGTTATAGCGTCAAAAAGGCAGGAGGGTTATGAGCAGTATCATCCTCAGGCTGGCTCCAGGCATTATATCGATATCAGGAGGAAGAGAGGAGGTATGCCTGGCAGAAAGCTAACAAGCGTGACTGTTTCGGTATAAACCGTTCAGGCAAATAGTTCTCAGAGGGATCCGAT (double strand) [hilA -410+66]”, the binding result is “binds”.

Consider “CTGAAGCTTATCTGCGGCAGGACGCTGATGACTATTACTTACAAAGGTTACATTTTCCATATTATCCCTTTGTTGATGTTATTTTAATGTTCCTTACTGGTATCCTACTGAAAAAATCTGAGTTGTAAATGCTCTTTATTAGCGTGTGTTGGCAATGGTCTGATTGTTACACCAAAAGAACCCAAATTTGGGTAATTTATCTGGATCCGTT (double strand) [hilD -108+88]”, for which the binding result is “binds”.

For the sequence “TAGGGATCCTCTTCGAGAAAAATGGTTCTGATGGTGTAATTATCAGACCATTAACCATGAAGATATAATAAGCAGCATTTACACCCCAAAAAAATGCAGTAAGATAGCTACAAAAAAGCTTTCT (double strand) [hilA -100+6 WT]”, the binding result is given as “binds”.
